PubChem BioAssay AID504811 | Drosophila RNAi Screening Center, 2011
Only reagents picked out of a larger screen are listed. 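Only hits are listed, without non-hit dsRNAs or numeric scores; replicate 2 has entries for just two rows.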 Reagents against one gene are numbered here. A plus sign joins genes that one reagent is predicted to hit. Not stated in the record: the amount of reagent, the time to read-out.

Purpose: 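Fly genes affecting Listeria uptake, escape from the vacuole or multiplication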 (primary screen)
Cells: Drosophila SL2 cells
Knock-down reagent: long dsRNA against Drosophila genes
Treatment: infection with GFP-expressing Listeria monocytogenes; dose and duration not given
Detection: 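Cells infected with GFP-tagged Listeria were imaged, and bacterial fluorescence was judged visually against control wells as reduced, increased or clustered in dots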
Rule for the call: 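a dsRNA counts as a hit when bacterial fluorescence is plainly weaker, stronger or dotted in clusters relative to control wells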
Calls: active = hit; inactive = not a hit

gene knocked down | reagent no. | infection phenotype, replicate 1 | activity call
Ctns | 1 | stronger bacterial GFP per infected cell than controls | active
Prosbeta2 | 1 | less bacterial GFP than control wells (fewer infected cells or weaker signal per cell) | active
mts | 1 | less bacterial GFP than control wells (fewer infected cells or weaker signal per cell) | active
RpL28 + snoRNA:Or-CD12 | 1 | stronger bacterial GFP per infected cell than controls | active
puc | 1 | less bacterial GFP than control wells (fewer infected cells or weaker signal per cell) | active
RpS14b | 1 | stronger bacterial GFP per infected cell than controls | active
PCNA | 1 | less bacterial GFP than control wells (fewer infected cells or weaker signal per cell) | active
Vha55 | 1 | less bacterial GFP than control wells (fewer infected cells or weaker signal per cell) | active
RpL35 | 1 | stronger bacterial GFP per infected cell than controls | active
gas | 1 | less bacterial GFP than control wells (fewer infected cells or weaker signal per cell) | active
Spx | 1 | stronger bacterial GFP per infected cell than controls | active
RpL10Ab | 1 | stronger bacterial GFP per infected cell than controls | active
tum | 1 | less bacterial GFP than control wells (fewer infected cells or weaker signal per cell) | active
MED16 | 1 | less bacterial GFP than control wells (fewer infected cells or weaker signal per cell) | active
Prosalpha5 | 1 | less bacterial GFP than control wells (fewer infected cells or weaker signal per cell) | active
Cyfip | 1 | less bacterial GFP than control wells (fewer infected cells or weaker signal per cell) | active
Rop | 1 | less bacterial GFP than control wells (fewer infected cells or weaker signal per cell) | active
RpL17 | 1 | stronger bacterial GFP per infected cell than controls | active
Rab7 | 1 | less bacterial GFP than control wells (fewer infected cells or weaker signal per cell) | active
CG14712 | 1 | less bacterial GFP than control wells (fewer infected cells or weaker signal per cell) | active
Cenp-C | 1 | less bacterial GFP than control wells (fewer infected cells or weaker signal per cell) | active
RpS5a | 1 | stronger bacterial GFP per infected cell than controls | active
Spc105R | 1 | less bacterial GFP than control wells (fewer infected cells or weaker signal per cell) | active
Sec3 | 1 | less bacterial GFP than control wells (fewer infected cells or weaker signal per cell) | active
VhaSFD | 1 | less bacterial GFP than control wells (fewer infected cells or weaker signal per cell) | active
mad2 | 1 | stronger bacterial GFP per infected cell than controls | active
Bet3 | 1 | less bacterial GFP than control wells (fewer infected cells or weaker signal per cell) | active
Hmgcr | 1 | less bacterial GFP than control wells (fewer infected cells or weaker signal per cell) | active
Srlp | 1 | stronger bacterial GFP per infected cell than controls | active
CG11583 | 1 | stronger bacterial GFP per infected cell than controls | active
RpS30 | 1 | stronger bacterial GFP per infected cell than controls | active
RpLP0 | 1 | stronger bacterial GFP per infected cell than controls | active
row | 1 | less bacterial GFP than control wells (fewer infected cells or weaker signal per cell) | active
RnrS | 1 | stronger bacterial GFP per infected cell than controls | active
Syx7 | 1 | less bacterial GFP than control wells (fewer infected cells or weaker signal per cell) | active
fzy | 1 | stronger bacterial GFP per infected cell than controls | active
His2B:CG33870 + His2B:CG33868 + His2B:CG33882 + 21 more | 1 | stronger bacterial GFP per infected cell than controls | active
RpL27 | 1 | stronger bacterial GFP per infected cell than controls | active
hoip | 1 | stronger bacterial GFP per infected cell than controls | active
Cbp80 | 1 | less bacterial GFP than control wells (fewer infected cells or weaker signal per cell) | active
hyx | 1 | less bacterial GFP than control wells (fewer infected cells or weaker signal per cell) | active
mute | 1 | less bacterial GFP than control wells (fewer infected cells or weaker signal per cell) | active
Rpn10 | 1 | less bacterial GFP than control wells (fewer infected cells or weaker signal per cell) | active
Mi-2 | 1 | less bacterial GFP than control wells (fewer infected cells or weaker signal per cell) | active
RpLP2 | 1 | stronger bacterial GFP per infected cell than controls | active
CG32280 | 1 | less bacterial GFP than control wells (fewer infected cells or weaker signal per cell) | active
lark | 1 | less bacterial GFP than control wells (fewer infected cells or weaker signal per cell) | active
raw | 1 | less bacterial GFP than control wells (fewer infected cells or weaker signal per cell) | active
raw | 2 | less bacterial GFP than control wells (fewer infected cells or weaker signal per cell) | active
Rpn11 | 1 | less bacterial GFP than control wells (fewer infected cells or weaker signal per cell) | active
velo | 1 | less bacterial GFP than control wells (fewer infected cells or weaker signal per cell) | active
CycA | 1 | stronger bacterial GFP per infected cell than controls | active
CycA | 2 | stronger bacterial GFP per infected cell than controls | active
RpL36A | 1 | stronger bacterial GFP per infected cell than controls | active
Lam | 1 | less bacterial GFP than control wells (fewer infected cells or weaker signal per cell) | active
Diap1 | 1 | less bacterial GFP than control wells (fewer infected cells or weaker signal per cell) | active
14-3-3epsilon | 1 | less bacterial GFP than control wells (fewer infected cells or weaker signal per cell) | active
Vha26 | 1 | less bacterial GFP than control wells (fewer infected cells or weaker signal per cell) | active
SmE | 1 | less bacterial GFP than control wells (fewer infected cells or weaker signal per cell) | active
RpS19a | 1 | stronger bacterial GFP per infected cell than controls | active
Rab35 | 1 | less bacterial GFP than control wells (fewer infected cells or weaker signal per cell) | active
Prosbeta5 | 1 | less bacterial GFP than control wells (fewer infected cells or weaker signal per cell) | active
Arp3 | 1 | less bacterial GFP than control wells (fewer infected cells or weaker signal per cell) | active
Rpt3 | 1 | less bacterial GFP than control wells (fewer infected cells or weaker signal per cell) | active
lncRNA:sphinx + ATPsynF | 1 | stronger bacterial GFP per infected cell than controls | active
ZC3H3 | 1 | stronger bacterial GFP per infected cell than controls | active
Cdc27 | 1 | less bacterial GFP than control wells (fewer infected cells or weaker signal per cell) | active
Spindly | 1 | less bacterial GFP than control wells (fewer infected cells or weaker signal per cell) | active
cpa | 1 | less bacterial GFP than control wells (fewer infected cells or weaker signal per cell) | active
RpS29 + snoRNA:Psi18S-1275 | 1 | stronger bacterial GFP per infected cell than controls | active
RpS10b | 1 | stronger bacterial GFP per infected cell than controls | active
RpL27A | 1 | stronger bacterial GFP per infected cell than controls | active
Tango4 | 1 | less bacterial GFP than control wells (fewer infected cells or weaker signal per cell) | active
Rpn3 | 1 | less bacterial GFP than control wells (fewer infected cells or weaker signal per cell) | active
RpL37-1 | 1 | stronger bacterial GFP per infected cell than controls | active
pbl | 1 | stronger bacterial GFP per infected cell than controls | active
RpS6 | 1 | stronger bacterial GFP per infected cell than controls | active
CycT | 1 | less bacterial GFP than control wells (fewer infected cells or weaker signal per cell) | active
Nep6 | 1 | less bacterial GFP than control wells (fewer infected cells or weaker signal per cell) | active
Sec23 | 1 | less bacterial GFP than control wells (fewer infected cells or weaker signal per cell) | active
Sf3a1 | 1 | less bacterial GFP than control wells (fewer infected cells or weaker signal per cell) | active
garz | 1 | less bacterial GFP than control wells (fewer infected cells or weaker signal per cell) | active
UQCR-C1 | 1 | stronger bacterial GFP per infected cell than controls | active
Fad2 | 1 | less bacterial GFP than control wells (fewer infected cells or weaker signal per cell) | active
His-Psi:CR31616 + His-Psi:CR31615 | 1 | stronger bacterial GFP per infected cell than controls | active
Arpc5 | 1 | less bacterial GFP than control wells (fewer infected cells or weaker signal per cell) | active
Polr2B | 1 | less bacterial GFP than control wells (fewer infected cells or weaker signal per cell) | active
cactin | 1 | stronger bacterial GFP per infected cell than controls | active
COX7C | 1 | stronger bacterial GFP per infected cell than controls | active
Spt6 | 1 | less bacterial GFP than control wells (fewer infected cells or weaker signal per cell) | active
RpS3 | 1 | stronger bacterial GFP per infected cell than controls | active
anne | 1 | stronger bacterial GFP per infected cell than controls | active
alphaCOP | 1 | less bacterial GFP than control wells (fewer infected cells or weaker signal per cell) | active
RpL12 | 1 | stronger bacterial GFP per infected cell than controls | active
CG8435 | 1 | less bacterial GFP than control wells (fewer infected cells or weaker signal per cell) | active
alphaTub84B | 1 | less bacterial GFP than control wells (fewer infected cells or weaker signal per cell) | active
ACC | 1 | less bacterial GFP than control wells (fewer infected cells or weaker signal per cell) | active
Prosbeta4 | 1 | less bacterial GFP than control wells (fewer infected cells or weaker signal per cell) | active
RpL9 | 1 | stronger bacterial GFP per infected cell than controls | active
Sec61beta | 1 | less bacterial GFP than control wells (fewer infected cells or weaker signal per cell) | active
dpr6 | 1 | bacterial GFP seen as punctate clusters; pointing to bacteria failing to leave the vacuole | active
Prosbeta1 | 1 | less bacterial GFP than control wells (fewer infected cells or weaker signal per cell) | active
Cdc2rk | 1 | less bacterial GFP than control wells (fewer infected cells or weaker signal per cell) | active
RpL23 | 1 | stronger bacterial GFP per infected cell than controls | active
fne | 1 | less bacterial GFP than control wells (fewer infected cells or weaker signal per cell) | active
Arf4 | 1 | less bacterial GFP than control wells (fewer infected cells or weaker signal per cell) | active
Sec6 | 1 | less bacterial GFP than control wells (fewer infected cells or weaker signal per cell) | active
BckdhA | 1 | less bacterial GFP than control wells (fewer infected cells or weaker signal per cell) | active
tsr | 1 | less bacterial GFP than control wells (fewer infected cells or weaker signal per cell) | active
Brr2 | 1 | less bacterial GFP than control wells (fewer infected cells or weaker signal per cell) | active
beta'COP | 1 | less bacterial GFP than control wells (fewer infected cells or weaker signal per cell) | active
Rab1 | 1 | less bacterial GFP than control wells (fewer infected cells or weaker signal per cell) | active
Hrb27C | 1 | less bacterial GFP than control wells (fewer infected cells or weaker signal per cell) | active
Prosalpha1R + Prosalpha1 | 1 | less bacterial GFP than control wells (fewer infected cells or weaker signal per cell) | active
RpL21 | 1 | stronger bacterial GFP per infected cell than controls | active
RpS17 | 1 | stronger bacterial GFP per infected cell than controls | active
RpS28b | 1 | stronger bacterial GFP per infected cell than controls | active
CG6015 | 1 | less bacterial GFP than control wells (fewer infected cells or weaker signal per cell) | active
CG9616 | 1 | less bacterial GFP than control wells (fewer infected cells or weaker signal per cell) | active
sbr | 1 | stronger bacterial GFP per infected cell than controls | active
sbr | 2 | stronger bacterial GFP per infected cell than controls | active
CkIIbeta | 1 | bacterial GFP seen as punctate clusters; pointing to bacteria failing to leave the vacuole | active
Rab10 | 1 | less bacterial GFP than control wells (fewer infected cells or weaker signal per cell) | active
BubR1 | 1 | stronger bacterial GFP per infected cell than controls | active
pim | 1 | less bacterial GFP than control wells (fewer infected cells or weaker signal per cell) | active
shn | 1 | less bacterial GFP than control wells (fewer infected cells or weaker signal per cell) | active
zfh1 | 1 | less bacterial GFP than control wells (fewer infected cells or weaker signal per cell) | active
nsl1 | 1 | stronger bacterial GFP per infected cell than controls | active
Abi | 1 | less bacterial GFP than control wells (fewer infected cells or weaker signal per cell) | active
AdoR | 1 | less bacterial GFP than control wells (fewer infected cells or weaker signal per cell) | active
Sf3b1 | 1 | less bacterial GFP than control wells (fewer infected cells or weaker signal per cell) | active
dlg1 | 1 | stronger bacterial GFP per infected cell than controls | active
His3:CG33818 + His3:CG33857 + His3:CG33806 + 20 more | 1 | stronger bacterial GFP per infected cell than controls | active
chic | 1 | less bacterial GFP than control wells (fewer infected cells or weaker signal per cell) | active
VhaAC45 | 1 | less bacterial GFP than control wells (fewer infected cells or weaker signal per cell) | active
RpS27A | 1 | stronger bacterial GFP per infected cell than controls | active
fand | 1 | stronger bacterial GFP per infected cell than controls | active
RpS16 | 1 | stronger bacterial GFP per infected cell than controls | active
RhoGAP92B | 1 | less bacterial GFP than control wells (fewer infected cells or weaker signal per cell) | active
